Results of unrelated studies side by side (data: NIAID ChemDB).

Common to all: tests on isolated targets

ICn: concentration for n% inhibition.

smiles | target | read-out | strain | organism | tested at | result
Cc1ccc2cc(-c3ccc4cc(-c5nc6cc(C(=O)O)ccc6n5C5CCCCC5)ccc4n3)ccc2c1 | NS5B polymerase | inhibition |  | Hepatitis C virus | 33 µM | 99.55%
CCC[C@]1(CC(=O)O)OCCc2c1[nH]c1c(C)ccc(C#N)c21 | NS5B polymerase | IC50 | J4 genotype 1B | Hepatitis C virus |  | 0.4 µM
COc1ccc(SCc2cccc(-c3nc(C(=O)O)c(O)c(=O)[nH]3)c2)cc1 | HCV polymerase | IC50 |  | Hepatitis C virus |  | <100 µM
Cc1ccc(C(=O)N(c2cc(-c3cccc(C(F)(F)F)c3)sc2C(=O)O)C(C)C)c(O)c1 | NS3 ATPase | IC50 |  | Hepatitis C virus |  | 5–20 µM
COc1ccc(-c2ccc(Cl)cc2)c(-c2ccc3cc(-c4nc5cc(C(=O)O)ccc5n4Cc4ccccc4)ccc3n2)c1 | NS5B polymerase | inhibition |  | Hepatitis C virus | 33 µM | 101%
CSc1ncc(C(=O)N2CCN(C)CC2)c(Nc2ccc3[nH]ncc3c2)n1 | Reverse transcription | IC50 |  | Hepatitis B virus |  | <0.1 µg/mL
O=C(O)C1Cc2ccccc2CN1C(=O)c1ccc2c(c1)nc(-c1ccc3nc(-c4ccccc4)cnc3c1)n2C1CCCCC1 | NS5B polymerase | inhibition |  | Hepatitis C virus | 100 µM | 98.89%
COC(=O)c1cnn2c(-c3cccc(Oc4ccccc4)c3)c(-c3ccccc3)cnc12 | RNA-dependent RNA polymerase | IC50 |  | Hepatitis C virus |  | >10 µM
O=C(O)c1ccc2c(c1)nc(-c1ccc3nc(-c4ccccc4)cc(Nc4ccc(Cl)cc4)c3c1)n2C1CCCCC1 | NS5B polymerase | inhibition |  | Hepatitis C virus | 100 µM | 101%
CSc1ncc(C(=O)NCCc2ccccn2)c(Nc2ccc3cn[nH]c3c2)n1 | Reverse transcription | IC50 |  | Hepatitis B virus |  | ~0.01 µg/mL
O=C(O)c1cnn2c(-c3ccccc3)c(-c3ccc(Oc4ccccc4)cc3)cnc12 | RNA-dependent RNA polymerase | IC50 |  | Hepatitis C virus |  | >10 µM
COCCNc1nc(Nc2ccc3cn[nH]c3c2)nc(OC)n1 | DNA polymerase | inhibition |  | Hepatitis B virus | 0.01 µg/mL | 32%
CN(C)CCNc1cc(C(=O)Nc2ccc3cn[nH]c3c2)c(F)cc1F | Reverse transcriptase | inhibition |  | Hepatitis B virus | 0.1 µg/mL | 36%
COCCNC(=O)c1cnc(SC)nc1Nc1ccc2[nH]ncc2c1 | Reverse transcription | IC50 |  | Hepatitis B virus |  | <1 µg/mL
Cc1ccc(C(=O)N(C)c2cc(-c3cccnc3)sc2C(=O)O)cc1 | NS3 ATPase | IC50 |  | Hepatitis C virus |  | 5–20 µM
O=C(O)C[C@H](NC(=O)c1cnn2c(C3CCCCC3)cc(-c3ccc(F)cc3F)nc12)c1ccccc1 | RNA-dependent RNA polymerase | IC50 |  | Hepatitis C virus |  | 1–10 µM
CSc1ncc(C(=O)NCCN(C)C)c(Nc2ccc3[nH]ncc3c2)n1 | Reverse transcription | IC50 |  | Hepatitis B virus |  | ~0.1 µg/mL
COCC(=O)N(Cc1ccc(F)cc1F)c1cc(-c2ccccc2)sc1C(=O)O | NS3 ATPase | IC50 |  | Hepatitis C virus |  | 5–20 µM
COc1nc(Nc2ccc3cn[nH]c3c2)nc(-n2ccnc2)n1 | Nonstructural protein 5B | inhibition |  | Hepatitis C virus | 0.1 µg/mL | 0%
Cc1ccc(C(=O)N(C)c2cc(-c3cccc(C)c3)sc2C(=O)O)cc1 | NS3 ATPase | IC50 |  | Hepatitis C virus |  | <5 µM
COc1nc(Nc2ccc3cn[nH]c3c2)nc(N2CCN(C)CC2)n1 | DNA polymerase | inhibition |  | Hepatitis B virus | 1 µg/mL | 53%
O=C(CNc1ccccc1)Nc1ccsc1-c1nc(C(=O)O)c(O)c(=O)[nH]1 | HCV polymerase | IC50 |  | Hepatitis C virus |  | <25 µM
CC(=O)N(Cc1ccc(Cl)cc1)c1cc(-c2ccccc2)sc1C(=O)O | NS3 ATPase | IC50 |  | Hepatitis C virus |  | 5–20 µM
O=C(NS(=O)(=O)Cc1ccccc1)c1cnn2c(C3CCCCC3)c(-c3ccc(F)cc3)cnc12 | RNA-dependent RNA polymerase | IC50 |  | Hepatitis C virus |  | 1–10 µM
O=C(Nc1ccc2cn[nH]c2c1)c1cc(NCCN2CCOCC2)c(F)cc1F | Reverse transcriptase | inhibition |  | Hepatitis B virus | 0.1 µg/mL | 36%
CSc1ncc(C(=O)N2CCN(C)CC2)c(Nc2ccc3cn[nH]c3c2)n1 | Reverse transcription | IC50 |  | Hepatitis B virus |  | <1 µg/mL
CCOC(=O)c1cc2nc(-c3ccccc3)cc(-c3ccccc3Cl)n2n1 | RNA-dependent RNA polymerase | IC50 |  | Hepatitis C virus |  | >10 µM
O=C(CNc1ccsc1-c1nc(C(=O)O)c(O)c(=O)[nH]1)NCc1ccccc1 | HCV polymerase | IC50 |  | Hepatitis C virus |  | <25 µM
O=C(O)c1cc2nccc(-c3cccc(-c4ccccc4Oc4ccccc4)c3)n2n1 | RNA-dependent RNA polymerase | IC50 |  | Hepatitis C virus |  | >10 µM
COc1ccc(-c2ccc(Cl)cc2)c(-c2ccc3cc(-c4nc5cc(C(=O)O)ccc5n4C4CCCC4)ccc3n2)c1 | NS5B polymerase | inhibition |  | Hepatitis C virus | 100 µM | 99.75%
CN(C)CCOC(=O)c1nc(-c2ccccc2NS(=O)(=O)c2ccc(Cl)c(Cl)c2Cl)[nH]c(=O)c1O | HCV polymerase | IC50 |  | Hepatitis C virus |  | <50 µM
O=C(Nc1ccc2[nH]ncc2c1)c1cc(NCCc2ccccn2)c(F)cc1F | Reverse transcriptase | inhibition |  | Hepatitis B virus | 1 µg/mL | 58%
CCOC(=O)c1cnn2c(-c3ccccc3)c(-c3ccc(OCc4ccccc4)cc3)cnc12 | RNA-dependent RNA polymerase | IC50 |  | Hepatitis C virus |  | >10 µM
O=C(O)c1ccc2c(c1)nc(-c1ccc3nc(-c4ccc[nH]4)ccc3c1)n2C1CCCCC1 | NS5B polymerase | inhibition |  | Hepatitis C virus | 33 µM | 96.48%
Cc1cccc(CN(C(=O)CC2CCCC2)c2cc(-c3ccccc3)sc2C(=O)O)c1 | NS3 ATPase | IC50 |  | Hepatitis C virus |  | <5 µM
COC(=O)[C@@H]1CCCN1c1nc(Nc2ccc3cn[nH]c3c2)nc(OC)n1 | DNA polymerase | inhibition |  | Hepatitis B virus | 0.01 µg/mL | 0%
O=C(Nc1ccsc1-c1nc(C(=O)O)c(O)c(=O)[nH]1)OCc1cc(Cl)ccc1[N+](=O)[O-] | HCV polymerase | IC50 |  | Hepatitis C virus |  | <25 µM
Cc1ccccc1C(=O)Nc1cc(Cc2cccc(C#N)c2)sc1C(=O)O | NS3 ATPase | IC50 |  | Hepatitis C virus |  | >20 µM
O=C(Nc1ccc2[nH]ncc2c1)c1cc(NCCO)c(F)cc1F | Reverse transcriptase | inhibition |  | Hepatitis B virus | 1 µg/mL | 78%
COc1nc(Nc2ccc3[nH]ncc3c2)nc(N2CCN(C)CC2)n1 | Nonstructural protein 5B | inhibition |  | Hepatitis C virus | 0.1 µg/mL | 12%
O=C(O)CCNC(=O)c1ccc2c(c1)nc(-c1ccc3ncc(-c4ccccc4)cc3c1)n2C1CCCCC1 | NS5B polymerase | inhibition |  | Hepatitis C virus | 100 µM | 70.15%
O=C(Nc1ccc2[nH]ncc2c1)c1cc(NCCCn2ccnc2)c(F)cc1F | Reverse transcriptase | inhibition |  | Hepatitis B virus | 0.1 µg/mL | 55%
O=C(O)c1nc(-c2sccc2NCc2ccccc2)[nH]c(=O)c1O | HCV polymerase | IC50 |  | Hepatitis C virus |  | <25 µM
CS(=O)(=O)c1ccc(COc2ccc(-c3cnc4c(-c5nn[nH]n5)cnn4c3C3CCCCC3)cc2)cc1 | RNA-dependent RNA polymerase | IC50 |  | Hepatitis C virus |  | 1–10 µM
O=C(Nc1cccc(-c2nc(C(=O)O)c(O)c(=O)[nH]2)c1)NC1CCCCC1 | HCV polymerase | IC50 |  | Hepatitis C virus |  | <100 µM
O=C(O)COc1cccc(-c2ccc3cc(-c4nc5cc(C(=O)O)ccc5n4C4CCCCC4)ccc3n2)c1 | NS5B polymerase | inhibition |  | Hepatitis C virus | 33 µM | 97.29%

Repeating the first 5 entries:

smiles	target	read-out	strain	organism	tested at	result
Cc1ccc2cc(-c3ccc4cc(-c5nc6cc(C(=O)O)ccc6n5C5CCCCC5)ccc4n3)ccc2c1	NS5B polymerase	inhibition		Hepatitis C virus	33 µM	99.55%
CCC[C@]1(CC(=O)O)OCCc2c1[nH]c1c(C)ccc(C#N)c21	NS5B polymerase	IC50	J4 genotype 1B	Hepatitis C virus		0.4 µM
COc1ccc(SCc2cccc(-c3nc(C(=O)O)c(O)c(=O)[nH]3)c2)cc1	HCV polymerase	IC50		Hepatitis C virus		<100 µM
Cc1ccc(C(=O)N(c2cc(-c3cccc(C(F)(F)F)c3)sc2C(=O)O)C(C)C)c(O)c1	NS3 ATPase	IC50		Hepatitis C virus		5–20 µM
COc1ccc(-c2ccc(Cl)cc2)c(-c2ccc3cc(-c4nc5cc(C(=O)O)ccc5n4Cc4ccccc4)ccc3n2)c1	NS5B polymerase	inhibition		Hepatitis C virus	33 µM	101%

Conditions beyond the fields shown may differ between rows. Two numbers with a dash give a range or band. Inhibition is in % at the dose shown (toxicity tests: loss of growth or viability). An empty or dashed field is not shown.